Legend:
EDIII-DV2 [1] = target: T1, EDIII-DV2 (Dengue virus serotype 2 (DV2), UniProt P14337 581-673); test: competition ELISA, affinity in solution at equilibrium
T1 construct: also called EDIII of DV2; EDIII-DVII
T1 chain: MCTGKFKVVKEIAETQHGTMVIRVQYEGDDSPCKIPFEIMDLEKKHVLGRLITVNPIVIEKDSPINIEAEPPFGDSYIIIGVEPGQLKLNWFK

EDIII-DV2 [2] = target: T1, EDIII-DV2; test: SPR (Biacore 3000): antibody captured on anti-human IgG Fc, EDIII as analyte

B1: VH_G27P (antibody, V domains shown)
VH: VKLLEQSGAELVKPGASVRLSCTASPFNIKDTYMSWVKQRPEQGLEWIGRIDPENGDTKYDPKFQGKATITADTSSNTAYLHLSSLTSGDTAVYYCSRGWEGFAYWGQGTLVTVSA
VL: ELVMTQTPASLAVSLGQRATISCRASENVDKYGNSFMHWYQQKAGQPPKLLIYRASELQWGIPARFSGSGSRTDFTLTINPVEADDVATYFCQRSNEVPWTFGGGTKLEIK
notes: also called 4E5-G27P; copies: 2 + 2
B1 showed a Kd (EDIII-DV2 [1]) of 0.3 nM.

B2: VH_A25_del (antibody, V domains shown)
VH: VKLLEQSGAELVKPGASVRLSCTSGFNIKDTYMSWVKQRPEQGLEWIGRIDPENGDTKYDPKFQGKATITADTSSNTAYLHLSSLTSGDTAVYYCSRGWEGFAYWGQGTLVTVSA
VL: ELVMTQTPASLAVSLGQRATISCRASENVDKYGNSFMHWYQQKAGQPPKLLIYRASELQWGIPARFSGSGSRTDFTLTINPVEADDVATYFCQRSNEVPWTFGGGTKLEIK
notes: also called 4E5-del-25; copies: 2 + 2
B2 was tested, and the Kd (EDIII-DV2 [2]) was 0.0664 nM.

B3: VH_G27A (antibody, V domains shown)
VH: VKLLEQSGAELVKPGASVRLSCTASAFNIKDTYMSWVKQRPEQGLEWIGRIDPENGDTKYDPKFQGKATITADTSSNTAYLHLSSLTSGDTAVYYCSRGWEGFAYWGQGTLVTVSA
VL: ELVMTQTPASLAVSLGQRATISCRASENVDKYGNSFMHWYQQKAGQPPKLLIYRASELQWGIPARFSGSGSRTDFTLTINPVEADDVATYFCQRSNEVPWTFGGGTKLEIKR
In the case of B3, the koff (EDIII-DV2 [2]) is reported as 0.000419 s⁻¹.

From US20200207841A1 (MIT, published 2020)
